Results of unrelated studies side by side (data: NIAID ChemDB).

Common to all: whole-cell or culture tests; species: HIV-1

Conditions beyond the fields shown may differ between rows. An empty or dashed field is not shown. ECn: concentration that inhibits the pathogen or its effect by n%.

smiles	cell line	method	measure	strain or isolate	mutations	result
C/C=C/CSc1cc(NC(=S)c2ccsc2C)ccc1Cl	CEM + CEM-SS	cytopathic effect / XTT	EC50	4XAZT+Y181C		0.9 µM
CC(=O)SCCOP(=O)(OCCSC(C)=O)OC[C@@H]1CC[C@H](n2cnc3c(=O)[nH]cnc32)O1	CEM + CEM-SS	RT activity	EC50	LAI		1.2 µM
Cc1cccc(C)c1OCC(=O)N[C@@H](Cc1ccccc1)[C@@H](O)C[C@H](Cc1ccccc1)NC(=O)[C@H](C(C)C)N1CCCNC1=O	PBMC	p24	EC90	HXB2	PR-M46I I47V I50V	0.255 µM
CC(C)(C)C(=O)c1sc(C(=O)NCc2ccccc2)c(O)c1O	PBMC	p24	EC50	ZA97005 X4 CLADE C		0.8 µM
C#C[C@]1(CO)O[C@@H](n2cnc3c(N)nc(F)nc32)C[C@@H]1O	MT4-GFP	fluorescence	EC50	Clinical isolate	T165A/M184V	0.01378 µM
CC(C)(C)NC(=O)[C@@H]1C[C@@H]2CCCC[C@@H]2CN1C[C@@H](O)[C@H](Cc1ccccc1)NC(=O)[C@H](CC(N)=O)NC(=O)c1ccc2ccccc2n1	PBMC	p24	EC90	BR97 (PR L10I K20R M36I/V P63L/S L90M)	PR-L10I K20R M36I/V P63L/S L90M	0.033 µM
Nc1ccn([C@@H]2O[C@H](CO)C=C2F)c(=O)n1	PBMC		EC90	3TC-resistant (RT M184V)	RT-M184V	1.8 µM
Cc1ccnc2c1NC(=O)c1cccnc1N2C1CC1	CEM	cytopathic effect	EC50	IIIB	RT-Y181C	6.8 µg/mL
CN=C1CN=C(c2ccc[nH]2)c2cc(Cl)ccc2N1	MOLT-4	cytopathic effect / MTT	EC50	IIIB		0.23 µM
Cc1cc(C#Cc2cccc(N)c2)cc(C)c1Oc1ccnc(NC2CCN(Cc3ccc(C(N)=O)cc3)CC2)n1	MT-4	MTT	EC50	IIIB	F227L + V106A	>0.198 µM
CC(C)Nc1cccnc1N1CCN(C(=O)c2cc3cc(NS(C)(=O)=O)ccc3[nH]2)CC1	CEM	syncytia	EC50	IIIB	RT-V179D	0.13 ± 0.06 µM
Cc1ccnc2c1NC(=O)c1cccnc1N2C1CC1	MT-4	cytopathic effect / XTT	EC50	IIIB		0.13 µM
CC(C)Nc1cccnc1N1CCN(C(=O)c2cc3cc(NS(C)(=O)=O)ccc3[nH]2)CC1	PBMC	p24	EC90	6 clinical isolates AZT-resistant		0.1 µM
CC(=O)SCCOP(=O)(OCCSC(C)=O)OC[C@@H]1CC[C@H](n2cnc3c(N)ncnc32)O1	CEM + CEM TK-	RT activity	EC50	LAI		0.00077 µM
Cc1cc(C#Cc2cccc(N)c2)cc(C)c1Oc1ccnc(NC2CCN(Cc3cccc(C(N)=O)c3)CC2)n1	MT-4	MTT	EC50	IIIB	Y181C	0.109 µM
CC(C)=CCN1Cc2cc(Cl)cc3[nH]c(=S)n(c23)C[C@@H]1C	CEM + CEM-SS	cytopathic effect / MTT	EC50	KELL		0.183 µM
CC(C)CN(C[C@@H](O)[C@H](Cc1ccccc1)NC(=O)O[C@H]1CCOC1)S(=O)(=O)c1ccc(N)cc1	MT-4	p24 / luminescence	EC50	NL4-3	L10F V32I M46I I54M A71V I84V	>1 µM
CC(C)(C)NC(=O)[C@@H]1C[C@@H]2CCCC[C@@H]2CN1C[C@@H](O)[C@H](Cc1ccccc1)NC(=O)[C@H](CC(N)=O)NC(=O)c1ccc2ccccc2n1	MT-4	cytopathic effect / XTT	EC50	IIIB		0.01 µM
Cc1c(O)cccc1C(=O)N[C@@H](CSc1ccccc1)[C@H](O)CN1C[C@H]2CCCC[C@H]2C[C@H]1C(=O)NC(C)(C)C	MT-4	cytopathic effect / MTT	EC50	NL4-3	PR-M46I V82T I84V 10R 63P	0.057 µM
O=C1N[C@H](CCc2ccccc2)[C@@H](O)[C@@H](Cc2ccccc2)N1Cc1cccc(O)c1	MT-2	cytopathic effect / MTT	EC50	RF		<4.8 µM
Cc1ccnc2c1NC(=O)c1cccnc1N2C1CC1	MT-4	cytopathic effect / MTT	EC50	Recombinant wild type		0.075 µM
CCC(=O)c1ccc(F)c([C@@H]2C[C@@H]2NC(=O)Nc2ccc(C#N)cn2)c1O	PBMC	absorbance	EC50	92UG029		0.0005 µM
COc1c(O)c(I)c2c(c1OC)-c1c(c(I)c(O)c(OC)c1OC)C[C@H](C)[C@H](C)C2	H9	p24	EC50	IIIB		0.06 µM
COc1ccc(S(=O)(=O)N(CC(C)C)C[C@@H](O)[C@H](Cc2ccccc2)NC(=O)O[C@H]2CO[C@H]3O[C@@H]4OCC[C@@H]4[C@H]32)cc1	MT-4	p24 / luminescence	EC50	NL4-3		0.0005 µM
Cc1cn([C@H]2C[C@H](N=[N+]=[N-])[C@@H](CO)O2)c(=O)[nH]c1=O	MT-4	cytopathic effect / MTT	EC50	1506-RS (RT-Y188L)	RT-Y188L	0.07 µM
CCc1cc(NCc2nc3ccccc3o2)c(=O)[nH]c1C	H9	p24	EC50	IIIB		<0.9 µM
CCN(c1nc(F)ccc1NC(C)(C)C)C1CCN(C(=O)c2cc3cc(NC(=O)N4CCN(C)CC4)ccc3[nH]2)CC1	MT-2	p24 / ELISA	EC50	IIIB	D437N	0.0261 µM
Nc1ncnc2c1ncn2[C@H]1CC[C@@H](CO)O1	CEM + CEM-SS	RT activity	EC50	LAI		0.54 µM
Cc1cc(C#Cc2cccc(N)c2)cc(C)c1Oc1ccnc(NC2CCN(c3cccc(C(N)=O)c3)CC2)n1	MT-4	MTT	EC50	IIIB	E138K	0.146 µM
O=C(O)P(=O)(O)O	MT-2	cytopathic effect / MTT	EC50	LAI viral clone (RT-Q161L)	RT-Q161L	295 µM
Cc1cn([C@H]2C[C@H](N=[N+]=[N-])[C@@H](CO)O2)c(=O)[nH]c1=O	C8166	p24 / ELISA	EC50	IIIB		0.01 µM
CC(C)CN(C[C@@H](O)[C@H](Cc1ccccc1)NC(=O)[C@H](CC(N)=O)NC(=O)c1ccc2ccccc2n1)C(=O)NC(C)(C)C	MT-4	p24	EC50	NL4-3	PR-L10R M46I L63P V82T I84V	<1.5 µM
Cc1cn([C@H]2C[C@H](N=[N+]=[N-])[C@@H](CO)O2)c(=O)[nH]c1=O	MT-2	p24 / ELISA	EC50	IIIB	M200I	0.153 µM
CC(C)=CCN1Cc2cc(Cl)cc3[nH]c(=S)n(c23)C[C@@H]1C	MT-4	cytopathic effect / MTT	EC50	IIIB	RT-E138K	0.464 µM
Nc1nc(=O)n([C@H]2CO[C@@H](CO)S2)cc1F	CBMC	RT activity	EC50	3350(RT-M184V)	RT-M184V	18 µM
Cc1ccnc2c1NC(=O)c1cccnc1N2C1CC1	U-937	cytopathic effect / XTT	EC50	IIIB		0.3 µM
CC(=O)SCCOP(=O)(OCCSC(C)=O)OC[C@H]1O[C@@H](n2cc(C)c(=O)[nH]c2=O)C[C@@H]1N=[N+]=[N-]	MT-4	RT activity	EC50	LAI		0.018 µM
CC(C)(C)NC(=O)[C@@H]1C[C@@H]2CCCC[C@@H]2CN1C[C@@H](O)[C@H](Cc1ccccc1)NC(=O)[C@H](CC(N)=O)NC(=O)c1ccc2ccccc2n1	MT-4	p24	EC95	NL4-3	PR-L10R L63P V82T I84V	0.1 µM
N/C(=N/O)c1cccc(CN2C(=O)N(Cc3cccc(/C(N)=N\O)c3)[C@H](Cc3ccc(F)c(F)c3)[C@H](O)[C@H]2CCc2ccc(F)c(F)c2)c1	MT-2	cytopathic effect / MTT	EC50	RF		<0.117 µM
CCc1cc(NCc2nc3c(Cl)ccc(Cl)c3o2)c(=O)[nH]c1C	MT-4	p24	EC50	RFII		0.05 µM
COc1c(O)c(Cl)c2c(c1OC)-c1c(c(Cl)c(O)c(OC)c1OC)C[C@H](C)[C@H](C)C2	H9	p24	EC50	IIIB		0.68 µM
Cc1cn([C@@H]2O[C@H](CO[Si](C)(C)C(C)(C)C)C3(OS(=O)(=O)C=C3N)[C@H]2O[Si](C)(C)C(C)(C)C)c(=O)n(C)c1=O	MT-4	cytopathic effect / MTT	EC50	HXB2 (RT E138A S162C E169D T200A L214F) Clinical isolate	RT-E138A S162C E169D T200A L214F	2.98 µM
Cc1occc1C(=S)Nc1ccc(Cl)c(/C=N/OC(C)(C)C)c1	CEM + CEM-SS	cytopathic effect / XTT	EC50	RF		0.1 µM
CC(C)=CCN1Cc2cc(Cl)cc3[nH]c(=S)n(c23)C[C@@H]1C	MT-4	cytopathic effect / XTT	EC50	118(RT-L100I)	RT-L100I	>10 µM
CCCCCCNC(=O)OCCCCCCNC(=O)OC1CCN(C(=O)Oc2ccc(Oc3ccccc3)cc2)CC1	MT-4	p24 / ELISA	EC50	IIIB		1.31 µM
CC(C)=CCOc1cc(NC(=S)c2ccsc2C)ccc1Cl	CEM	cytopathic effect	EC50	IIIB		0.003 µg/mL
COc1ccc(S(=O)(=O)N(CC(C)C)C[C@@H](O)[C@H](Cc2ccccc2)NC(=O)O[C@H]2CO[C@@H]3O[C@H]4OCC[C@H]4[C@@H]32)cc1	MT-4	p24 / luminescence	EC50	NL4-3	L10F M46I I54V V82A	>1 µM
CC(C)Oc1ccc(Cc2ccccc2)cc1C(=O)CC(=O)C(=O)O	MT-4	p24	EC95	IIIB		0.1 µM
CC(C)CN(C[C@@H](O)[C@H](Cc1ccccc1)NC(=O)O[C@H]1CCOC1)S(=O)(=O)c1ccc(N)cc1	MT-2	p24 / ELISA	EC50	IIIB	D437N L441P	0.0473 µM
O=C1N(Cc2cccc(CO)c2)[C@H](Cc2ccccc2)[C@H](O)[C@@H](C(Br)Cc2ccccc2)N1Cc1cccc(CO)c1	MT-2	cytopathic effect / MTT	EC50	RF		<2.1 µM
CCC[C@@]1(CCc2ccccc2)CC(O)=C([C@H](CC)c2cccc(NS(=O)(=O)c3ccc(C(F)(F)F)cn3)c2)C(=O)O1	PBMC	p24	EC50	Isolate UJ00009		<0.32 µM
Cc1ccccc1Cc1cccc(C(=O)CC(=O)C(=O)O)c1		p24	EC50		INTG-T66I S153Y	1.2 µM
Fc1cccc(F)c1CCNC(=S)Nc1ccccn1	MT-4	cytopathic effect	EC50	IIIB		0.01 µM
Cc1cc(C)c(Nc2ccnc(Nc3ccc(C#N)cc3)n2)c(C)c1	PBMC	absorbance	EC50	1617-1		0.0034 µM
N#Cc1cccc(CN2C(=O)N(Cc3cccc(C#N)c3)[C@H](Cc3ccccc3)[C@H](O)[C@H]2CCc2ccccc2)c1	MT-2	cytopathic effect / MTT	EC50	RF		<1.6 µM
CC(=O)c1ccccc1NC(C(N)=O)c1c(Cl)cccc1Cl	MT-4	p24	EC50	IIIB		<0.15 µM
CC(C)CN(C[C@@H](O)[C@H](Cc1ccccc1)NC(=O)[C@@H](NC(=O)CNCc1cccc(F)c1)C(C)(C)C)S(=O)(=O)c1cccc(N)c1	PBMC	virus yield	EC50	IIIB		<0.012 µM
Cc1cn([C@H]2C[C@H](N=[N+]=[N-])[C@@H](CO)O2)c(=O)[nH]c1=O	MT-4	RT activity	EC50	HxB2D(RT-D67G)	RT-D67G	0.019 µM
O=c1[nH]cnc2c1ncn2[C@H]1CC[C@@H](CO)O1	MT-2	cytopathic effect / MTT	EC50	LAI		15.4 µM
CC(C)(C)C(=O)c1sc(C(=O)NCCc2ccccc2)c(O)c1O	MM + M/M	p24	EC50	BAL R5		0.2 µM
Nc1nc(=O)n([C@@H]2CO[C@H](CO)S2)cc1F	MT-4	RT activity	EC50	HXB2D		6.6 µM
O=C(NCc1ccc(F)cc1)c1nc(N2CCCCS2(=O)=O)c2cccnc2c1O	PBMC	p24	EC50	BaL		<0.022 µM
CCc1cc(NCc2nc3c(C)ccc(C)c3o2)c(=O)[nH]c1C	MT-4	p24	EC50	RUTZ		<0.05 µM
Cc1cn([C@H]2CC[C@@H](CO)O2)c(=O)[nH]c1=O	CEM + CEM TK-	RT activity	EC50	LAI		>100 µM
COC(=O)N[C@@H](Cc1c[nH]c2ccccc12)C(=O)NCCCC[C@@H](CO)N(CC(C)C)S(=O)(=O)c1ccc(N)cc1	MT-4	cytopathic effect / MTT	EC50	NL4-3	SQV-resistant (PR G48V L90M)	0.395 µM
CC(C)OC(=O)OCOP(=O)(CO[C@H](C)Cn1cnc2c(N)ncnc21)OCOC(=O)OC(C)C	TZM-gfp	GFP	EC50	NL4-3	A114S/M184V	0.04 µM
Cc1cn([C@H]2C[C@H](N=[N+]=[N-])[C@@H](CO)O2)c(=O)[nH]c1=O	PBMC	p24	EC50	D34 X4		0.008 µM
Cc1cc(C#CC2CC2)cc(C)c1Oc1ccnc(Nc2ccc(C#N)cc2)n1	MT-4	MTT	EC50	IIIB	F227L + V106A	5.3 µM
CC(C)(C)OC(=O)N[C@@H](Cc1ccccc1)[C@H](O)CNC[C@@H](O)[C@H](Cc1ccccc1)NC(=O)OC(C)(C)C	MT-2	p24	EC50	RF		0.06 µM
CC(C)=CCN1Cc2cc(Cl)cc3[nH]c(=S)n(c23)C[C@@H]1C	CEM	cytopathic effect	EC50	IIIB	RT-V106A	0.5 µg/mL
CC(C)CN(C[C@@H](O)[C@H](Cc1ccccc1)NC(=O)[C@H](CC(N)=O)NC(=O)c1ccc2ccccc2n1)C(=O)NC(C)(C)C			EC50	BMS-186318-resistant (PR A71T V82A)	PR-A71T V82A	0.16 µM
O=c1[nH]cnc2c1ncn2[C@H]1CC[C@@H](CO)O1	MT-4	cytopathic effect / MTT	EC50	Recombinant wild type		11.2 µM
Nc1ccn([C@@H]2S[C@H](CO)C=C2F)c(=O)n1	PBMC		EC90	xxBRU		5 µM
Cc1ccnc2c1NC(=O)c1cccnc1N2C1CC1	MT-4	RT activity	EC50	HXB2D		0.024 µM
S=C(NCCc1ccccc1)Nc1nccs1	MT-4	cytopathic effect	EC50	IIIB		1.33 µM
CC(=O)c1ccc(C)cc1NC(C(N)=O)c1c(Cl)cccc1Cl	MT-4	cytopathic effect / MTT	EC50	Recombinant mutant	RT-E138A	0.03 µM